{"source": "patent US20100016367A1", "about": "“BIS-PYRINIDIUM COMPOUNDS” (priority 2006, published 2010)", "settings_in_all_cases": "Table 2", "key": {"[1]": {"test_system": "C. neoformans ATCC 90112", "assay": "Antifungal susceptibility assay, MIC", "type": "cell-based, Cryptococcus neoformans"}, "[2]": {"test_system": "C. albicans ATCC 10231", "assay": "Antifungal susceptibility assay, MIC", "type": "cell-based, Candida albicans"}, "[3]": {"test_system": "A. flavus ATCC 204304", "assay": "Antifungal MIC, broad spectrum", "type": "cell-based, Aspergillus flavus"}, "[4]": {"test_system": "Aspergillus terreus ATCC 03-232-378", "assay": "In vitro antifungal activity vs Amphotericin B"}, "[5]": {"test_system": "Fusarium solani 04-132-4207", "assay": "In vitro antifungal activity vs Amphotericin B"}, "[6]": {"test_system": "Scedosporium apiospermum 1-003-056", "assay": "In vitro antifungal activity vs Amphotericin B"}, "[7]": {"test_system": "Scedosporium prolificans 1-003-040", "assay": "In vitro antifungal activity vs Amphotericin B"}}, "note": "Values joined by “and” are separate entries in the source; they are usually repeats but may differ in a detail not shown here. Equal values may be shown once."}
{"substance": "Amphotericin B", "values": [{"measurement": "In vitro antifungal activity, Cryptococcus neoformans ATCC 90112", "setting": "[1]", "value": "0.50 μg/ml and 0.54 μM"}, {"measurement": "In vitro antifungal activity, Candida albicans ATCC 10231", "setting": "[2]", "value": "0.50 μg/ml and 0.54 μM"}, {"measurement": "In vitro antifungal activity, Aspergillus flavus ATCC 204 304", "setting": "[3]", "value": "0.50 μg/ml and 0.54 μM"}, {"measurement": "In vitro antifungal activity, Aspergillus terreus ATCC 03-232-378", "setting": "[4]", "value": "1.0 μg/ml and 1.1 μM"}, {"measurement": "In vitro antifungal activity, Fusarium solani 04-132-4207", "setting": "[5]", "value": "0.25 μg/ml and 0.27 μM"}, {"measurement": "In vitro antifungal activity, Scedosporium apiospermum 1-003-056", "setting": "[6]", "value": "0.50 μg/ml and 0.54 μM"}, {"measurement": "In vitro antifungal activity, Scedosporium prolificans 1-003-040", "setting": "[7]", "value": "4.0 μg/ml and 4.3 μM"}]}
